From US10408837B2 (priority 2013, dated 2019)

Target: BoNT/E (Clostridium botulinum, UniProt Q00496)
Conditions: peak ratio of cleavage product versus internal standard

Sequence: IIGNLRHMALDMGNEIDTQNRQIDRIMEKADSNKT
- CT-product (Peak ratio) (activated toxin, 0.15 mLD50): 1.07
- CT-product (Peak ratio) (unactivated toxin, 100 mLD50): 0.40

Read-outs that look alike come from different tables or passages of the source.
